Results from article PMC3871185 (ACS medicinal chemistry letters, 2013).

Test system: Burkholderia thailandensis

SMILES	growth inhibition of B. thailandensis (in words)
Oc1ccc(Cl)c2cccnc12 [compound 4, reference compound]	inhibited cell growth
Oc1c(CN2CCCCC2)cc(Cl)c2cccnc12 [compound 5]	inhibition of cell growth
Oc1c(CN2CCOCC2)cc(Cl)c2cccnc12 [compound 6]	inhibited cell growth
CN1CCN(Cc2cc(Cl)c3cccnc3c2O)CC1 [compound 8]	inhibited cell growth
Cc1ccc(S(=O)(=O)Nc2ccc(Br)cc2C(=O)O)cc1 [compound 24]	nor the sulfonamide (24 and 25) derivatives demonstrated significant growth inhibition
